From US20190231791A1, “Combination Therapy” (Eli Lilly and Company, priority 2016, published 2019)

Target: T1, Aβ […] peptide (Homo sapiens)
T1 construct: flowing pE3-42 Aβ peptide or Aβ 1-40 peptide, starting from 100 nM
Assay: Binding by surface plasmon resonance (BIACORE 3000)
Settings: peptide 100 nM down to 3.125 nM, 25° C.
Procedure: The binding affinity and kinetics of an anti-[…] […] The binding affinity is measured by capturing the anti-[…] Aβ antibody via immobilized protein A on a BIACORE® CMS chip, and flowing pE3-42 Aβ peptide or Aβ 1-40 peptide, starting from 100 nM in 2-fold serial dilution down to 3.125 nM. The experiments are carried out at 25° C. in HBS-EP buffer (GE Healthcare BR100669; 10 mM HEPES, 150 mM NaCl, 3 mM EDTA, 0.05% surfactant P20, pH 7.4). For each cycle, the antibody is captured with 5 μL injection of antibody solution at a 10 μg/mL concentration with 10 μL/min flow rate. The peptide is bound with 250 μL injection at 50 μL/min, and then dissociated for 10 minutes. The chip surface is regenerated with 5 μL injection of glycine buffer at pH 1.5 at 10 μL/mL flow rate. The data is fit to a 1:1 Langmiur binding model to derive kon, koff, and to calculate KD.

Molecule | binding to Aβ 1-40
Antibody I: anti-N3pGlu Abeta antibody with light chain SEQ ID NO: 12 and heavy chain SEQ ID NO: 11 (antibody) heavy: QVQLVQSGAEVKKPGSSVKVSCKASGYTFTDYYINWVRQAPGQGLEWMGWINPGSGNTKYNEKFKGRVTITADESTSTAYMELSSLRSEDTAVYYCTREGETVYWGQGTLVTVSSASTKGPSVFPLAPSSKSTSGGTAALGCLVKDYFPEPVTVSWNSGALTSGVHTFPAVLQSSGLYSLSSVVTVPSSSLGTQTYICNVNHKPSNTKVDKKV[human IgG1 Fc not shown] light: DVVMTQSPLSLPVTLGQPASISCKSSQSLLYSRGKTYLNWFQQRPGQSPRRLIYDVSKLDSGVPDRFSGSGSGTDFTLKISRVEAEDVGVYYCVQGTHYPFTFGQGTKLEIKRTVAAPSVFIFPPSDEQLKSGTASVVCLLNNFYPREAKVQWKVDNALQSGNSQESVTEQDSKDSTYSLSSTLTLSKADYEKHKVYACEVTHQGLSSPVTKSFNRGEC | No appreciable binding
Antibody II: anti-N3pGlu Abeta antibody with light chain SEQ ID NO: 13 and heavy chain SEQ ID NO: 11 (antibody) heavy: QVQLVQSGAEVKKPGSSVKVSCKASGYTFTDYYINWVRQAPGQGLEWMGWINPGSGNTKYNEKFKGRVTITADESTSTAYMELSSLRSEDTAVYYCTREGETVYWGQGTLVTVSSASTKGPSVFPLAPSSKSTSGGTAALGCLVKDYFPEPVTVSWNSGALTSGVHTFPAVLQSSGLYSLSSVVTVPSSSLGTQTYICNVNHKPSNTKVDKKV[human IgG1 Fc not shown] light: DIQMTQSPSTLSASVGDRVTITCKSSQSLLYSRGKTYLNWLQQKPGKAPKLLIYAVSKLDSGVPSRFSGSGSGTEFTLTISSLQPDDFATYYCVQGTHYPFTFGQGTKLEIKRTVAAPSVFIFPPSDEQLKSGTASVVCLLNNFYPREAKVQWKVDNALQSGNSQESVTEQDSKDSTYSLSSTLTLSKADYEKHKVYACEVTHQGLSSPVTKSFNRGEC | No appreciable binding
